Compound potency records, mixed from different reports. Data source: NIAID ChemDB in PubChem.

Shared fields: whole-cell or culture tests; agent: Candida albicans; read-out: MIC

Conditions beyond the fields shown may differ between rows.

structure | strain | result
CNc1ccc(C(=O)CC(O)CCC(C)C2OC(=O)CC(O)CC(=O)CC(O)CC(O)CC(O)CC(O)CC3(O)CC(O)C(C(=O)N4CCN(CCO)CC4)C(CC(O[C@@H]4O[C@H](C)[C@@H](O)[C@H](NC(=O)CN(C)C)[C@@H]4O)/C=C/C=C/C=C/C=C\C=C/C=C/C=C/C2C)O3)cc1 | 73 | 0.015 µg/mL
COc1ccc(C2=NN(C(N)=S)C(c3cc4c([nH]3)CC(C)(C)CC4=O)C2)cc1 | ATCC 2091 | 200 µg/mL
COc1ccc(C2=CC(c3cc(OC)c(OC)c(OC)c3)NC(SCC(=O)Nc3ccc(Cl)cc3)N2)cc1OC | DSM 70014 | 25 µg/mL
CNc1ccc(C(=O)CC(O)CCC(C)C2OC(=O)CC(O)CC(=O)CC(O)CC(O)CC(O)CC(O)CC3(O)CC(O)C(C(=O)NCCc4ccccn4)C(CC(O[C@@H]4O[C@H](C)[C@@H](O)[C@H](NC(=O)CCN5CCCCC5)[C@@H]4O)/C=C/C=C/C=C/C=C\C=C/C=C/C=C/C2C)O3)cc1 | 200 | >0.96 µg/mL
Cc1ncc([N+](=O)[O-])n1CCn1c(-c2ccc([N+](=O)[O-])cc2)csc1=Nc1ccccc1 | - | 250 µg/mL
N#Cc1ccc(-c2c[nH]cc2C(c2ccc(Cl)cc2Cl)n2ccnc2)cc1 | - | 4.3 µg/mL
CCOc1cc2c(cc1F)n([O-])c(C)c(Cl)[n+]2=O | Clinical isolate 20 | 15.6 µg/mL
CSc1ccc(-c2c[nH]cc2C(c2ccc(Cl)cc2Cl)n2ccnc2)cc1 | - | 2.8 µg/mL
Cc1ccc(C(C)C)c(O)c1 | H37 | 0.16 µg/mL
COc1cc(C2CC(c3ccc4c(c3)OCO4)=NN2C(C)=O)cc(OC)c1OC | DSM 70014 | 25 µg/mL
C[C@H]1[C@H](O)[C@@H](C)/C=C/C=C/C=C/C=C/C=C/C=C/C=C/[C@H](O[C@@H]2O[C@H](C)[C@@H](O)[C@H](N)[C@@H]2O)C[C@@H]2O[C@](O)(C[C@@H](O)C[C@@H](O)CC[C@H](O)[C@@H](O)C[C@@H](O)CC(=O)O[C@H]1C)C[C@H](O)[C@H]2C(=O)O | ATCC 90028 | 5 µg/mL
NS(=O)(=O)c1ccc(C2C=C(c3ccc(Cl)cc3)C(Br)C2c2ccccc2)cc1 | ATCC 2091 | 50 µg/mL
CNc1ccc(C(=O)CC(O)CCC(C)C2OC(=O)CC(O)CC(=O)CC(O)CC(O)CC(O)CC(O)CC3(O)CC(O)C(C(=O)NCCN(C)C)C(CC(O[C@@H]4O[C@H](C)[C@@H](O)[C@H](NC(=O)CN(C)C)[C@@H]4O)/C=C/C=C/C=C/C=C\C=C/C=C/C=C/C2C)O3)cc1 | 73 | 0.015 µg/mL
CCCCCOc1ccc(-c2ccc(-c3ccc(C(=O)N[C@H]4CCCNC(=O)[C@@H]5C[C@H](N)CN5C(=O)[C@H](CC)NC(=O)C(CCc5ccc(O)cc5)NC(=O)[C@@H]5C[C@@H](O)CN5C(=O)[C@H]([C@@H](C)O)NC4=O)cc3)cc2)cc1 | ATCC CCH442 | 0.1 µg/mL
CC(=O)C[C@@H]1C[C@H]2[C@H]([C@@H]3c4[nH]c5ccccc5c4CCN13)[C@H](O)C13CC/C=C\CCCCN1CC21CC/C=C\CCCNC13 | - | >20 µg/mL
CC1(C)CC(=O)c2cc(C3=CC(c4ccc(Br)cc4)=CC3c3nnc4c(n3)Nc3ccccc3C4)[nH]c2C1 | ATCC 2091 | 200 µg/mL
CC(C)C(=O)CCC[C@@H]1CO[C@@](Cn2cncn2)(c2ccc(F)cc2F)C1 | A.10231 | >100 µg/mL
Cc1ccc(-c2csc(=Nc3ccccc3)n2CCn2c([N+](=O)[O-])cnc2C)cc1 | - | 250 µg/mL
CNc1ccc(C(=O)CC(O)CCC(C)C2OC(=O)CC(O)CC(=O)CC(O)CC(O)CC(O)CC(O)CC3(O)CC(O)C(C(=O)N4CCN(CCO)CC4)C(CC(O[C@@H]4O[C@H](C)[C@@H](O)[C@H](NC(=O)CN5CCN(C)CC5)[C@@H]4O)/C=C/C=C/C=C/C=C\C=C/C=C/C=C/C2C)O3)cc1 | 73 | 0.03 µg/mL
CCCCCCCC(=O)N[C@H]1CC2C(=O)NCCC[C@H](NC(=O)c3ccc(-c4ccc(-c5ccc(OCCCCC)cc5)cc4)cc3)C(=O)NC(C(C)O)C(=O)N3C[C@H](O)CC3C(=O)NC(CCc3ccc(O)cc3)C(=O)NC(C(C)O)C(=O)N2C1 | ATCC 62376 | 50 µg/mL
COc1cc(C2CC(c3ccc4c(c3)OCO4)=NN2c2ccc([N+](=O)[O-])cc2)cc(OC)c1OC | DSM 70014 | 25 µg/mL
CCCCCOc1ccc(-c2ccc(-c3ccc(C(=O)N[C@H]4CCCNC(=O)C5C[C@H](N)CN5C(=O)C(C)NC(=O)C(CCc5ccc(O)cc5)NC(=O)C5C[C@@H](O)CN5C(=O)C(C(C)O)NC4=O)cc3)cc2)cc1 | ATCC CCH442 | 0.2 µg/mL
CC(C)C(=O)CCC[C@H]1CO[C@@](Cn2cncn2)(c2ccc(F)cc2F)C1 | IFO. 1385 | <0.1 µg/mL
CCCCCOc1ccc(-c2ccc(-c3ccc(C(=O)N[C@H]4CCCNC(=O)[C@@H]5C[C@H](NC(=O)CCC(=O)O)CN5C(=O)[C@H]([C@@H](C)O)NC(=O)[C@H](CCc5ccc(O)cc5)NC(=O)[C@@H]5C[C@@H](O)CN5C(=O)[C@H]([C@@H](C)O)NC4=O)cc3)cc2)cc1 | ATCC 62376 | 0.78 µg/mL
Cc1ncc([N+](=O)[O-])n1CCn1c(-c2ccc(CO)cc2)csc1=Nc1ccccc1 | - | 250 µg/mL
O=[n+]1c(Sc2ccccc2)c(CBr)n([O-])c2ccccc21 | Clinical isolate 22 | 15.6 µg/mL
COc1cc(C2CC(c3ccc4c(c3)OCO4)=NN2c2ccccc2)cc(OC)c1OC | DSM 70014 | 50 µg/mL
Clc1ccc(-c2cn(CC3CC3)cc2C(c2ccccc2)n2ccnc2)cc1 | - | 0.025 µg/mL
Cc1ncc([N+](=O)[O-])n1CCNC(=S)Nc1ccc(Cl)cc1 | - | 250 µg/mL
C[C@@H](SC1COC(/C=C/C=C/c2ccc(C#N)cc2F)OC1)[C@](O)(Cn1cncn1)c1ccc(F)cc1F | ATCC64550 | 0.25 µg/mL
CCCCC/C=C/CCC(=O)[C@H]1O[C@H]1C(=O)NCc1ccccc1 | G2-sensitive | 6.25 µg/mL
CCCCCOc1ccc(-c2ccc(-c3ccc(C(=O)N[C@H]4CCCNC(=O)[C@@H]5C[C@H](N)CN5C(=O)[C@H](Cc5ccc(O)cc5)NC(=O)C(CCc5ccc(O)cc5)NC(=O)[C@@H]5C[C@@H](O)CN5C(=O)[C@H]([C@@H](C)O)NC4=O)cc3)cc2)cc1 | ATCC 62376 | 1.56 µg/mL
COc1ccc(C2=CC(c3nnc4c(n3)Nc3ccccc3N4)C(c3cc4c([nH]3)CC(C)(C)CC4=O)=C2)cc1 | ATCC 2091 | 200 µg/mL
Cc1ncc([N+](=O)[O-])n1CCNC(=S)Nc1ccc(CO)cc1 | - | 250 µg/mL
CCCn1cc(-c2ccc(Cl)cc2)c(C(c2ccccc2)n2ccnc2)c1 | - | 0.023 µg/mL
CCOc1cc2c(cc1F)n([O-])c(C)c(S(=O)(=O)c1ccccc1)[n+]2=O | Clinical isolate 11 | 15.6 µg/mL
CC1(C)CC(=O)c2cc(C3CC(c4ccc(Cl)cc4)=NN3)[nH]c2C1 | ATCC 2091 | 200 µg/mL
CCCCCCCCC(=O)[C@H]1O[C@H]1C(=O)NCc1ccccc1 | F2 sensitive | 6.25 µg/mL
CCCCCCCCCCCCOc1ccc(N2CCN(c3ccc(C(=O)N[C@H]4CCCNC(=O)C5C[C@H](N)CN5C(=O)C(C(C)O)NC(=O)C(CCc5ccc(O)cc5)NC(=O)C5C[C@@H](O)CN5C(=O)C(C(C)O)NC4=O)cc3)CC2)cc1 | ATCC CCH442 | 0.78 µg/mL
CCCCC/C=C/CCC(=O)[C@H]1O[C@H]1C(=O)N(CC)CC | SC5314 | 12.5 µg/mL
Cc1c(S(=O)(=O)c2ccccc2)[n+](=O)c2cc(Cl)ccc2n1[O-] | Clinical isolate 18 | 7.8 µg/mL
CC(C)C(=N)CCC[C@H]1CO[C@@](Cn2cncn2)(c2ccc(F)cc2F)C1 | CI-2 | >100 µg/mL
c1ccc(-c2c[nH]cc2C(c2ccc3ccccc3c2)n2ccnc2)cc1 | - | 3.8 µg/mL
Cc1ncc([N+](=O)[O-])n1CCn1c(-c2ccc(Cl)cc2)csc1=Nc1ccccc1 | - | 250 µg/mL
CCCCCCCCOc1ccc(N2CCN(c3ccc(C(=O)N[C@H]4CCCNC(=O)C5C[C@H](N)CN5C(=O)C(C(C)O)NC(=O)C(Cc5ccc(CO)cc5)NC(=O)C5CCCN5C(=O)C(C(C)O)NC4=O)cc3)CC2)cc1 | ATCC 10231 | 1.56 µg/mL
CC(C)C(=N)CCC=C1CO[C@@](Cn2ccnc2)(c2ccc(F)cc2F)C1 | B02630 | >100 µg/mL
Cn1cc(-c2cccc3ccccc23)c(C(c2ccc(Cl)cc2Cl)n2ccnc2)c1 | - | 0.94 µg/mL
CC1(C)CC(=O)c2cc(C3CC(c4ccc(Cl)cc4)=NO3)[nH]c2C1 | ATCC 2091 | 200 µg/mL
C[C@@H](SC1COC(/C=C/C=C/c2ccc(C#N)cc2)OC1)[C@](O)(Cn1cncn1)c1ccc(F)cc1F | TIMM3164 | 0.031–0.063 µg/mL
CC(C)C(=N)CCC[C@H]1CO[C@@](Cn2cccc2)(c2ccc(F)cc2F)C1 | CI-2 | 100 µg/mL
COc1ccc(C(Cc2ccc([N+](=O)[O-])cc2)n2ccnc2)cc1 | - | 17 µg/mL
Cc1c(S(=O)(=O)c2ccccc2)[n+](=O)c2ccccc2n1[O-] | Clinical isolate 13 | 15.6 µg/mL
CCCCCOc1ccc(-c2ccc(-c3ccc(C(=O)N[C@H]4CCCNC(=O)[C@@H]5C[C@H](N)CN5C(=O)[C@@H]([C@H](C)O)NC(=O)C(CCc5ccc(O)cc5)NC(=O)[C@@H]5C[C@@H](O)CN5C(=O)[C@H]([C@@H](C)O)NC4=O)cc3)cc2)cc1 | ATCC CCH442 | 6.25 µg/mL
C=Cn1cc(-c2ccc(Cl)cc2)c(C(c2ccccc2)n2ccnc2)c1 | - | 0.031 µg/mL
COc1ccc(C2=CC(c3cc(OC)c(OC)c(OC)c3)N3C(=O)CSC3=N2)cc1OC | DSM 70014 | 100 µg/mL

For reference, 4 entries again:

structure	strain	result
CCCCC/C=C/CCC(=O)[C@H]1O[C@H]1C(=O)N(CC)CC	SC5314	12.5 µg/mL
COc1ccc(C2=CC(c3cc(OC)c(OC)c(OC)c3)NC(SCC(=O)Nc3ccc(Cl)cc3)N2)cc1OC	DSM 70014	25 µg/mL
CCCCCOc1ccc(-c2ccc(-c3ccc(C(=O)N[C@H]4CCCNC(=O)[C@@H]5C[C@H](N)CN5C(=O)[C@H](CC)NC(=O)C(CCc5ccc(O)cc5)NC(=O)[C@@H]5C[C@@H](O)CN5C(=O)[C@H]([C@@H](C)O)NC4=O)cc3)cc2)cc1	ATCC CCH442	0.1 µg/mL
Cn1cc(-c2cccc3ccccc23)c(C(c2ccc(Cl)cc2Cl)n2ccnc2)c1	-	0.94 µg/mL

Two numbers with a dash give a range or band. An empty or dashed field is not shown.